Laboratory results from paper PMC5361215 (Scientific Reports, 2017).

Amino acid sequences for entries named in this document (tags omitted). Residues count along the entry.
UniProt P06828, 19-539 K108G: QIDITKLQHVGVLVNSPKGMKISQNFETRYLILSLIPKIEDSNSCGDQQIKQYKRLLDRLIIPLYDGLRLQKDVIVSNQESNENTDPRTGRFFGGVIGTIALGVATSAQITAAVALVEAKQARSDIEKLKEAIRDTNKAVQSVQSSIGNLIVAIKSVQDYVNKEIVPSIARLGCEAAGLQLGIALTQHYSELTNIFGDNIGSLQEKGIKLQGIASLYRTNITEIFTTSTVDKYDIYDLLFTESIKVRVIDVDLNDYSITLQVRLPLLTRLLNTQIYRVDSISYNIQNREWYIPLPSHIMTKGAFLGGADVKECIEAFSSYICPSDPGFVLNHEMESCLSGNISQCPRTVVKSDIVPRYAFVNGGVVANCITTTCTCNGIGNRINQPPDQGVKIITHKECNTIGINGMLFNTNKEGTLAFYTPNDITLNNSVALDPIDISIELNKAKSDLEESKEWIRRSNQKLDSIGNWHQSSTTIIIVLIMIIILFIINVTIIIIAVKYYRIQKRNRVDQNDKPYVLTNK

Target: uncleaved HPIV3 F (K108G) (Human parainfluenza 3 virus, UniProt P06828, K108G)
Experiment: Peptide bridging assay: RBC retention on cells expressing HN and uncleaved F
Type: cell-based
Conditions: 1 μM peptide, 37 °C 1 h, then zanamivir; 293T cells with HN and F csm K108G; three experiments

CC[C@H](C)[C@H](NC(=O)[C@H](CO)NC(=O)[C@H](CC(=O)O)NC(=O)[C@H](CC(C)C)NC(=O)[C@H](CCCCN)NC(=O)CNC(=O)[C@H](CC(N)=O)NC(=O)[C@H](CO)NC(=O)[C@H](CCCNC(=N)N)NC(=O)[C@H](CCCNC(=N)N)NC(=O)[C@@H](NC(=O)[C@H](Cc1c[nH]c2ccccc12)NC(=O)[C@H](CCC(=O)O)NC(=O)[C@H](CCCCN)NC(=O)[C@H](CO)NC(=O)[C@H](CCC(=O)O)NC(=O)[C@H](CCC(=O)O)NC(=O)[C@H](CC(C)C)NC(=O)[C@H](CC(=O)O)NC(=O)[C@H](CO)NC(=O)[C@H](CCCCN)NC(=O)[C@H](C)NC(=O)[C@H](CCCCN)NC(=O)[C@H](CC(N)=O)NC(=O)[C@H](CC(C)C)NC(=O)[C@@H](NC(=O)[C@@H](NC(=O)[C@H](CO)NC(=O)[C@@H](NC(=O)[C@H](CC(=O)O)NC(=O)[C@@H](NC(=O)[C@@H]1CCCN1C(=O)[C@H](CC(=O)O)NC(=O)[C@H](CC(C)C)NC(=O)[C@H](C)NC(=O)[C@@H](NC(C)=O)C(C)C)[C@@H](C)CC)[C@@H](C)CC)[C@@H](C)CC)C(C)C)[C@@H](C)CC)C(=O)NCC(=O)N[C@@H](CO)C(=O)NCC(=O)N[C@@H](CO)C(=O)NCC(=O)N[C@@H](CSCC(=O)O[C@H]1CC[C@@]2(C)C(=CC[C@H]3[C@@H]4CC[C@H]([C@H](C)CCCC(C)C)[C@@]4(C)CC[C@@H]32)C1)C(N)=O [VG-Chol]
RBCs irreversibly bound (peptide bridging): 35%
